Test results published in PMC10517994, “Structural basis for calcium-stimulating pore formation of Vibrio α-hemolysin” (2023).
Values joined by “and” are separate entries in the source; they are usually repeats but may differ in a detail not shown here. Equal values may be shown once.

Key:
[1] = target: mature VcαHL H415A (Vibrio campbellii); test: negative-stain TEM
[2] = target: mature VcαHL H422A (Vibrio campbellii); test: negative-stain TEM
[3] = target: mature Vibrio campbellii α-hemolysin (mature VcαHL), wild type (Vibrio campbellii); test: cryo-EM structure
[4] = target: mature Vibrio campbellii α-hemolysin (mature VcαHL), wild type (Vibrio campbellii); test: negative-stain TEM

## mature VcαHL H415A (natural protein)
[1]
  stoichiometry N: 7

## mature VcαHL H422A (natural protein)
[2]
  stoichiometry N: 7

## mature Vibrio campbellii α-hemolysin (mature VcαHL), wild type (natural protein)
[3]
  stoichiometry N: 7
[4]
  stoichiometry N: 7 and 3 and 6
